Measurements: PubChem BioAssay
The list shows a part of the results, in another mix than the full data. Active and inactive are the calls of the source. Unless noted, the rule behind the calls is not given here.

Amino acid sequences for entries named in this document (tags omitted).
UniProt P0DPI0, whole entry, looked up: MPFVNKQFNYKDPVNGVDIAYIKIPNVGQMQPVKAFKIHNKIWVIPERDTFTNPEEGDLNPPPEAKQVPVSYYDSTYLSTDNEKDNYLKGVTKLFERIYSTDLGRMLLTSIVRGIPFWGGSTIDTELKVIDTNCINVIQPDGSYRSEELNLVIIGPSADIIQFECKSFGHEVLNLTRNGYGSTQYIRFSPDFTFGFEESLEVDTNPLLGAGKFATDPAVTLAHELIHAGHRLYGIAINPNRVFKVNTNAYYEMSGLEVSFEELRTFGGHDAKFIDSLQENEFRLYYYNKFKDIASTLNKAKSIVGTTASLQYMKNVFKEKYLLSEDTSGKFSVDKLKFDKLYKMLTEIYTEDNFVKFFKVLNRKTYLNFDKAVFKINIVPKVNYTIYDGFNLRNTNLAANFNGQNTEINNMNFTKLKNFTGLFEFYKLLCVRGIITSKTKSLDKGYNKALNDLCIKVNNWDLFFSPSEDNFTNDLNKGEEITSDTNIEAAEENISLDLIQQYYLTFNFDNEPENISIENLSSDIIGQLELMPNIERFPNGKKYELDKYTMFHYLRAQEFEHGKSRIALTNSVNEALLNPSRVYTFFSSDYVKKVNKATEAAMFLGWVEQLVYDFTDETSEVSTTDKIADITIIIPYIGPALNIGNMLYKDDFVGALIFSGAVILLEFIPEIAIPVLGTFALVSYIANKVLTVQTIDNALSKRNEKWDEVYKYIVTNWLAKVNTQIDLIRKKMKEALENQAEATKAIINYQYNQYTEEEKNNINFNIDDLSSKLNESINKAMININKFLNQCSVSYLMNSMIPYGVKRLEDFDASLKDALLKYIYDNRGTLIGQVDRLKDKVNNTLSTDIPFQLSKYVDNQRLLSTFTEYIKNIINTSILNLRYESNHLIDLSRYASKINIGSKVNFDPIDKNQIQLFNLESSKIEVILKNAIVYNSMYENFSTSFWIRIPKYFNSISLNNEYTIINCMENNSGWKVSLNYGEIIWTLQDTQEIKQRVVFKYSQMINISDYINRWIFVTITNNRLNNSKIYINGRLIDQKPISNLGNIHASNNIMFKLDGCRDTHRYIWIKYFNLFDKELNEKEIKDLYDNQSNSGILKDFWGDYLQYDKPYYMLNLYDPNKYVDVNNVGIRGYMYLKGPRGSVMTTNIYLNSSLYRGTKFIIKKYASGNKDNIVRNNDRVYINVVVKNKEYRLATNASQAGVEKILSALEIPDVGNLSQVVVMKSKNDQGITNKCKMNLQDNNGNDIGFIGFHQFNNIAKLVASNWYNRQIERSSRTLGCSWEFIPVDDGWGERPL
UniProt P15917, whole entry, looked up: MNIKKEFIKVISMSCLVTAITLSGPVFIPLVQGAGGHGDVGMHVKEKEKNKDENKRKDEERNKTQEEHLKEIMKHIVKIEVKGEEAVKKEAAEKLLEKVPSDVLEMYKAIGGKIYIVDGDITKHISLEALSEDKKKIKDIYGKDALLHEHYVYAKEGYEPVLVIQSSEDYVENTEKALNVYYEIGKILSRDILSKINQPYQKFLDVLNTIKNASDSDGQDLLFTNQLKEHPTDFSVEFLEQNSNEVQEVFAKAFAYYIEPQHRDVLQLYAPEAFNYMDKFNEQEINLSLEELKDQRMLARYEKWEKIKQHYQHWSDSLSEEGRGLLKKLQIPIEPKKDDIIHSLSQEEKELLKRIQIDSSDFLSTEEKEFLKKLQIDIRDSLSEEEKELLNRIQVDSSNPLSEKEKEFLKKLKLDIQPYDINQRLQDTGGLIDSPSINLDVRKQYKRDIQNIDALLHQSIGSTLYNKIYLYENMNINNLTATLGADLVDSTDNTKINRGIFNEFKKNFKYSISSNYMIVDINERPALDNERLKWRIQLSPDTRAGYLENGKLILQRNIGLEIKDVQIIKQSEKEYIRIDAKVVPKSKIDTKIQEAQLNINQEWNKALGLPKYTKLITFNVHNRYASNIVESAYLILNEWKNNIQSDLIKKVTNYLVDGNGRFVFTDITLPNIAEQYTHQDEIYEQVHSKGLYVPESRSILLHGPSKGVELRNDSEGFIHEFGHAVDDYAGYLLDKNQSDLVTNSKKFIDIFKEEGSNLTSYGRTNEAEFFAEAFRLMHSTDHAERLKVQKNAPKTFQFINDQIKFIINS

Experiments:
[1] = tested on: Botulinum neurotoxin type F light chain protease (Clostridium botulinum); assay: Botulinum neurotoxin type F light chain protease inhibition, multiplex microsphere flow cytometry, validation set (AID 588459); conditions: multiplex microsphere protease substrate cleavage assay, at 10 µM, hits give high values
[2] = molecular target: Botulinum neurotoxin type A (Clostridium botulinum) (UniProt P0DPI0); assay: BoNT/A light chain protease inhibitors, biochemical, multiplex microsphere flow cytometry, validation set (AID 588460); conditions: at 10 µM, hits give high values
[3] = molecular target: Lethal factor (Bacillus anthracis) (UniProt P15917); assay: Lethal factor protease inhibitors, Bacillus anthracis, multiplex microsphere cleavage assay, validation set (AID 588461); conditions: flow cytometry, at 10 µM, hits give high values
[4] = inhibitors of fungal efflux pumps CDR1, CDR2, MDR1, pilot screen, validation compound set, multiplex, phenotypic (AID 588506;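 active = efflux inhibition above 0.42, the validation set average plus 4 SD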;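 note: Nile Red retained in cells so higher fluorescence means more efflux inhibition; 0 = negative control wells and 1 = enniatin B 25 µM full block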); conditions: S. cerevisiae pump-expressing triplex, Nile Red efflux flow cytometry; at 10 µM; hits give high values; the pumps come from Candida albicans

CN(C(=O)Cc1ccc(Cl)c(Cl)c1)[C@@H]1CCCC[C@H]1N1CCCC1
inactive: inhibition [1] 4.4% | inhibition [2] 0.6% | inhibition [3] 0.8% | efflux inhibition (fraction of control) [4] 0
